Biological target: the molecule itself
Experiment: SEC; SEC on a HiLoad 16/600 Superdex 200 pg column after Ni-NTA purification from HEK293E supernatant

B1: C25-SAmut (soluble PfCSP with 66KKNSR70 mutated to 66SSNSA70, Cys25 kept) (natural protein)
chain: not shown
notes: Plasmodium falciparum circumsporozoite protein (PfCSP), soluble recombinant form, mammalian codon-optimized; an HRV3C cleavage site stands between the Avi-Tag and the His-tag; source: HEK293E, transient transfection, purified from culture supernatant (Ni-NTA, SEC)
stoichiometry N: 2

— publication PMC12053698, “Elicitation of liver-stage immunity by nanoparticle immunogens displaying P. falciparum CSP-derived antigens” (NPJ Vaccines, 2025)
